Active and inactive are the calls of the source. The calls are words filed in the database; no cut-off is given here.
Each compound was assayed on Zika virus (assay: Antiviral activity against Zika virus harboring subgenomic GFP replicon infected in African green monkey Vero cells assessed as reduction in viral infection at 100 uM preincubated for 30 mins followed by viral infection and measured after 72 hrs).
Format: functional, organism-based
For `[N-]=[N+]=NCc1cc(CN=[N+]=[N-])cc(-c2cc(CN=[N+]=[N-])cc(Cn3cc(COCCOCc4cn(Cc5cc(CN=[N+]=[N-])cc(-c6cc(CN=[N+]=[N-])cc(CN=[N+]=[N-])c6)c5)nn4)nn3)c2)c1`, the Activity was “Active”. `[N-]=[N+]=NCc1cc(CN=[N+]=[N-])cc(-c2cc(CN=[N+]=[N-])cc(CN=[N+]=[N-])c2)c1` was tested, and the Activity was “Active”. For `[N-]=[N+]=NCc1cc(CN=[N+]=[N-])cc(-c2cc(CN=[N+]=[N-])cc(Cn3cc(COCCOCCOCCOCCOCCOCc4cn(Cc5cc(CN=[N+]=[N-])cc(-c6cc(CN=[N+]=[N-])cc(CN=[N+]=[N-])c6)c5)nn4)nn3)c2)c1`, the Activity was “Active”. In the case of `[N-]=[N+]=NCc1cc(CN=[N+]=[N-])cc(-c2cc(CN=[N+]=[N-])cc(Cn3cc(COCCOCCOCCOCc4cn(Cc5cc(CN=[N+]=[N-])cc(-c6cc(CN=[N+]=[N-])cc(CN=[N+]=[N-])c6)c5)nn4)nn3)c2)c1`, the Activity was “Active”.

Reference: ChEMBL document CHEMBL4385601, “Anti-Zika Activity of a Library of Synthetic Carbohydrate Receptors” (J Med Chem, 2019)
